According to patent publication US12606829B2, “Compositions for herpesvirus transcriptional feedback circuit disruption and uses thereof” (priority 2018, dated 2026):

Test system: HSV-1 (17syn+ IE175-YFP)
Assay: Continuous-culture experiment, HSV-1 passaged on ARPE-19 cells
Format: cell-based

Nc1nc2c(ncn2COCCO)c(=O)[nH]1 [ACV, acyclovir]
day at which resistance (positive slope of the titering dynamics) begins (HSV-1, ACV): 4 days
emergence of HSV-1 resistance (MOI=1, ACV, supernatant transferred every 2 days over 3 rounds): within two rounds of infection
